In patent US7635685B2 (priority 2003, dated 2009):

Assays:
[1] = system: B. anthracis (Sterne strain); experiment: MIC microdilution assay against B. anthracis; format: cell-based, Bacillus anthracis; details: 18 h at 37° C., BHI broth, tested form: sulfate
E. coli strains = experiment: MIC microdilution assay against E. coli strains; format: cell-based; details: tested form: sulfate
E. coli XL1(pET9d) = experiment: MIC microdilution assay against resistant E. coli XL1(pET9d); format: cell-based; details: APH(3′), tested form: sulfate; for MIC: E. coli XL1 blue (pET9d), kanamycin-resistant
[2] = system: Pseudomonas aeruginosa (ATCC 27853); experiment: MIC microdilution assay against Pseudomonas aeruginosa; format: cell-based; details: tested form: sulfate; for MIC: Pseudomonas aeruginosa (ATCC 27853)
[3] = system: Salmonella virchow (SV49); experiment: MIC microdilution assay against Salmonella virchow; format: cell-based; details: tested form: sulfate; for MIC: Salmonella virchow (SV49), multidrug-resistant
[4] = molecular target: anthrax lethal factor (LF) (Bacillus anthracis, UniProt P15917); experiment: in vitro fluorescent assay of inhibition of LF protease activity; details: tested form: sulfate
[5] = system: Staphylococcus epidermidis; experiment: MIC microdilution assay against Staphylococcus epidermidis; format: cell-based; details: tested form: sulfate; for MIC: Staphylococcus epidermidis (ATCC 12228)
[6] = read-out: Ki High salt, high salt: 10 mM potassium HEPES pH 7.4, 150 mM KCl, LF about 33 nM, without BSA
[7] = read-out: Ki Low salt, low salt: 10 mM potassium HEPES pH 7.4, LF about 33 nM, without BSA
[8] = read-out: Ki High salt, in the presence of BSA (in parentheses), high salt, 150 mM KCl, 0.1 mg/mL BSA
[9] = read-out: Ki Low salt, in the presence of BSA (in parentheses), low salt, 0.1 mg/mL BSA
[10] = strain resistant to kanamycin and neomycin B

Row | SMILES | MIC [1] | MIC (E. coli strains; E. coli (ATCC 25922)) | MIC (E. coli strains; E. coli (R47-100)) | MIC (E. coli XL1(pET9d)) | MIC [2] | MIC [3] | Ki [4, 6] | Ki [4, 7] | MIC [5] | change of binding to LF by addition of BSA ([4]; 0.1 mg/mL BSA, low salt) | Ki [4, 8] | Ki [4, 9] | tighter binding to LF than monoamino glucose derivatives IV and VII ([4]; low salt) | antibacterial activity against Pseudomonas aeruginosa (from MIC) [2] | antibacterial activity against E. coli strains (from MIC) (E. coli strains) | antibacterial activity against E. coli XL1(pET9d) (from MIC) (E. coli XL1(pET9d); kanamycin resistance) | more effective than kanamycin against Salmonella virchow [3, 10] | more effective than neomycin B against Salmonella virchow [3, 10] | antibacterial activity against Salmonella virchow (from MIC) [3] | antibacterial activity against Staphylococcus epidermidis [5]
1 | NC[C@@H]1O[C@H](O[C@H]2[C@@H](O)[C@H](O[C@@H]3[C@@H](O)[C@H](N)C[C@H](N)[C@H]3O[C@H]3O[C@H](CN)[C@@H](O)[C@H](O)[C@H]3N)O[C@@H]2CO[C@@H]2O[C@H](CO)[C@@H](O)[C@H](O)[C@H]2N)[C@H](N)[C@@H](O)[C@@H]1O | 2 µg/mL (≈ 2.58 µM) | 25 to 30 µg/mL | 35 to 40 µg/mL | >200 µg/mL | 40 to 50 µg/mL | >1250 µg/mL | 66 µM | 0.013 µM | – | – | – | – | – | – | – | – | – | – | – | –
2 | NC[C@@H]1O[C@H](O[C@H]2[C@@H](O)[C@H](O[C@@H]3[C@@H](O)[C@H](N)C[C@H](N)[C@H]3O[C@H]3O[C@H](CN)[C@@H](O)[C@H](O)[C@H]3N)O[C@@H]2CS)[C@H](N)[C@@H](O)[C@@H]1O | 8 µg/mL (≈ 12.7 µM) | 100 to 150 µg/mL | 90 to 100 µg/mL | 700 to 800 µg/mL | 350 to 400 µg/mL | >800 µg/mL | 10 µM | 0.0002 µM | 10 to 11 µg/mL | not significantly affected | – | – | – | – | – | – | – | – | – | –
3 | NC[C@@H]1O[C@H](O[C@H]2[C@@H](O)[C@H](O[C@@H]3[C@@H](O)[C@H](N)C[C@H](N)[C@H]3O[C@H]3O[C@H](CN)[C@@H](O)[C@H](O)[C@H]3N)O[C@@H]2CO[C@@H]2O[C@H](CO)[C@@H](N)[C@H](O)[C@H]2O)[C@H](N)[C@@H](O)[C@@H]1O | 2 µg/mL (≈ 2.58 µM) | 45 to 60 µg/mL | 45 to 50 µg/mL | 250 to 400 µg/mL | 45 to 50 µg/mL | >1000 µg/mL | 85 µM | 0.015 µM | 4.5 to 5.5 µg/mL | – | 58 µM | 0.036 µM | – | – | – | – | – | – | – | –
4 | NC[C@@H]1O[C@H](O[C@H]2[C@@H](O)[C@H](O[C@@H]3[C@@H](O)[C@H](N)C[C@H](N)[C@H]3O[C@H]3O[C@H](CN)[C@@H](O)[C@H](O)[C@H]3N)O[C@@H]2CO[C@@H]2O[C@H](CN)[C@@H](O)[C@H]2O)[C@H](N)[C@@H](O)[C@@H]1O | 2 µg/mL (≈ 2.68 µM) | 35 to 40 µg/mL | 35 to 50 µg/mL | 200 to 250 µg/mL | 55 to 60 µg/mL | >1000 µg/mL | 39 µM | – | 4 to 5 µg/mL | – | – | – | about 10 fold | – | – | – | – | – | – | –
5 | NC[C@@H]1O[C@H](O[C@H]2[C@@H](O)[C@H](O[C@@H]3[C@@H](O)[C@H](N)C[C@H](N)[C@H]3O[C@H]3O[C@H](CN)[C@@H](O)[C@H](O)[C@H]3N)O[C@@H]2CO[C@@H]2O[C@H](CN)[C@@H](N)[C@H](O)[C@H]2O)[C@H](N)[C@@H](O)[C@@H]1O | 2 µg/mL (≈ 2.58 µM) | 40 to 50 µg/mL | 40 to 50 µg/mL | >200 µg/mL | 30 to 35 µg/mL | >1250 µg/mL | 28 µM | – | – | – | 30 µM | 0.017 µM | – | – | – | – | – | – | – | –
6 | NC[C@@H]1O[C@H](O[C@H]2[C@@H](O)[C@H](OC[C@H]3O[C@@H](O[C@@H]4[C@@H](O)[C@H](N)C[C@H](N)[C@H]4O[C@H]4O[C@H](CN)[C@@H](O)[C@H](O)[C@H]4N)[C@H](O)[C@@H]3O[C@H]3O[C@@H](CN)[C@@H](O)[C@H](O)[C@H]3N)O[C@@H]2CO)[C@H](N)[C@@H](O)[C@@H]1O | 2 µg/mL (≈ 2.21 µM) | 100 to 150 µg/mL | 150 to 200 µg/mL | 250 to 500 µg/mL | 40 to 60 µg/mL | >1000 µg/mL | 21 µM | 0.0004 µM | 4 to 5 µg/mL | – | – | – | – | – | – | – | – | – | – | –
7 | NC[C@@H]1O[C@H](O[C@H]2[C@@H](O)[C@H](O[C@@H]3[C@@H](O)[C@H](N)C[C@H](N)[C@H]3O[C@H]3O[C@H](CN)[C@@H](O)[C@H](O)[C@H]3N)O[C@@H]2CO[C@@H]2O[C@H](CO)[C@@H](N)[C@@H](N)[C@H]2O)[C@H](N)[C@@H](O)[C@@H]1O | 8 µg/mL (≈ 10.3 µM) | 95 µg/mL (≈ 123 µM) | 85 µg/mL (≈ 110 µM) | >200 µg/mL | – | >1250 µg/mL | 50 µM | 0.011 µM | 5.5 to 7 µg/mL | – | – | – | – | – | – | – | – | – | – | –
8 | NC[C@@H]1O[C@H](O[C@H]2[C@@H](O)[C@H](O[C@@H]3[C@@H](O)[C@H](N)C[C@H](N)[C@H]3O[C@H]3O[C@H](CN)[C@@H](O)[C@H](O)[C@H]3N)O[C@@H]2CO[C@@H]2O[C@H](CN)[C@@H](O)[C@H](O)[C@H]2N)[C@H](N)[C@@H](O)[C@@H]1O | 1 µg/mL (≈ 1.29 µM) | 30 to 50 µg/mL | 50 to 70 µg/mL | 150 to 200 µg/mL | 10 to 15 µg/mL | >1000 µg/mL | 20 µM | – | 5.5 to 6.0 µg/mL | – | 24 µM | 0.015 µM | – | significantly better results than either kanamycin or neomycin B | – | – | – | – | – | –
9 | NC[C@@H]1O[C@H](O[C@H]2[C@@H](O)[C@H](O[C@@H]3[C@@H](O)[C@H](N)C[C@H](N)[C@H]3O[C@H]3O[C@H](CN)[C@@H](O)[C@H](O)[C@H]3N)O[C@@H]2CO[C@@H]2O[C@H](CO)[C@@H](O)[C@H]2O)[C@H](N)[C@@H](O)[C@@H]1O | 1 µg/mL (≈ 1.34 µM) | 10 to 11 µg/mL | 4.5 to 6 µg/mL | 35 to 45 µg/mL | 60 to 65 µg/mL | – | 134 µM | 0.028 µM | – | – | – | – | – | activity close to that of neomycin B | as potent as neomycin B | better activity than neomycin B | about 5 times | 2 times | better activity than other analogues | effective

Converted amounts (≈) assume the structure as drawn. Read-outs that look alike come from different tables or passages of the source.
